Reference: PubChem BioAssay AID1259414 (Drosophila RNAi Screening Center, 2018)

- Assay: 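Genome-wide screen for host control of endosymbiont load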 (primary screen)
- Cell system: Drosophila JW18 cells infected with Wolbachia
- Reagent: long dsRNA against Drosophila genes, 0.25 µg dsRNA per well of a 384-well plate
- Duration: 5 days
- Challenge: cells persistently infected with Wolbachia before knock-down; no added drug
- Read-out: 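Imaged fluorescence in situ signal for Wolbachia 23S rRNA per DAPI-counted host cell, given as a robust z-score within each plate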
- Reading the numbers: Wolbachia per cell robust z: higher = more Wolbachia per host cell than the plate typical
- Hit rule: 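Hit when robust z is 1.5 or more, or -1.5 or less, in at least two of three replicates; excludes dsRNAs with several or no targets, genes not expressed in JW18 and well A1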
In all, the deposit lists about 24,000 reagents; this is a random part of those that have a named target and a result. Over the whole deposit, about 1,210 (5%) got an active call. 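Inactive calls also include excluded dsRNAs with several or no targets, genes unexpressed in JW18, and well A1, regardless of score.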

With cl (clot) [DRSC02118], how do the results read?
Wolbachia per cell robust z, rep 1: 0.302; Wolbachia per cell robust z, rep 2: -0.463; Wolbachia per cell robust z, rep 3: 0.128; Outcome: inactive

Which result is listed for ND-39 (NADH dehydrogenase (ubiquinone) 39 kDa subunit) [DRSC11791]?
Wolbachia per cell robust z, rep 1: -2.15; Wolbachia per cell robust z, rep 2: 0.232; Wolbachia per cell robust z, rep 3: 1.2; Outcome: inactive

With ND-39 (NADH dehydrogenase (ubiquinone) 39 kDa subunit) [DRSC28392], what does the deposit list?
Wolbachia per cell robust z, rep 1: 0.568; Wolbachia per cell robust z, rep 2: -0.67; Wolbachia per cell robust z, rep 3: -0.499; Outcome: inactive

With CG15473 [DRSC18056], what does the deposit list?
Wolbachia per cell robust z, rep 1: -2.51; Wolbachia per cell robust z, rep 2: -3.14; Wolbachia per cell robust z, rep 3: -2.11; Outcome: inactive

For AstC-R1 (Allatostatin C receptor 1) [DRSC10799], what was measured?
Wolbachia per cell robust z, rep 1: 0.762; Wolbachia per cell robust z, rep 2: 1.1; Wolbachia per cell robust z, rep 3: -0.36; Outcome: inactive

With AstC-R1 (Allatostatin C receptor 1) [DRSC29648], how do the results read?
Wolbachia per cell robust z, rep 1: -0.869; Wolbachia per cell robust z, rep 2: -0.305; Wolbachia per cell robust z, rep 3: -1.02; Outcome: inactive

For CadN (Cadherin-N) [DRSC03286], what was measured?
Wolbachia per cell robust z, rep 1: -0.114; Wolbachia per cell robust z, rep 2: 0.897; Wolbachia per cell robust z, rep 3: -0.127; Outcome: inactive

Which result is listed for CadN (Cadherin-N) [DRSC27368]?
Wolbachia per cell robust z, rep 1: -0.172; Wolbachia per cell robust z, rep 2: 0.942; Wolbachia per cell robust z, rep 3: 0.862; Outcome: inactive

With CG13738 [DRSC10065], what was measured?
Wolbachia per cell robust z, rep 1: -1.73; Wolbachia per cell robust z, rep 2: -0.0355; Wolbachia per cell robust z, rep 3: 1.12; Outcome: inactive

With CG13738 [DRSC23534], what was measured?
Wolbachia per cell robust z, rep 1: -0.457; Wolbachia per cell robust z, rep 2: 0.0776; Wolbachia per cell robust z, rep 3: -1.04; Outcome: inactive

How did the screen score CG43055 [DRSC40544]?
Wolbachia per cell robust z, rep 1: -3.07; Wolbachia per cell robust z, rep 2: -0.35; Wolbachia per cell robust z, rep 3: -2.64; Outcome: inactive

For CG12106 [DRSC17805], how do the results read?
Wolbachia per cell robust z, rep 1: -1.53; Wolbachia per cell robust z, rep 2: -6.34; Wolbachia per cell robust z, rep 3: 0.52; Outcome: active

With Peritrophin-A (Peritrophin A) [DRSC20570], what was measured?
Wolbachia per cell robust z, rep 1: 1.28; Wolbachia per cell robust z, rep 2: 0.153; Wolbachia per cell robust z, rep 3: 1.51; Outcome: inactive

Which result is listed for CG34353 [DRSC14493]?
Wolbachia per cell robust z, rep 1: -0.565; Wolbachia per cell robust z, rep 2: 0.0242; Wolbachia per cell robust z, rep 3: 0.618; Outcome: inactive

With CG34353 [DRSC14517], what was measured?
Wolbachia per cell robust z, rep 1: -0.727; Wolbachia per cell robust z, rep 2: -0.961; Wolbachia per cell robust z, rep 3: -0.256; Outcome: inactive

For CG34353 [DRSC14563], what does the deposit list?
Wolbachia per cell robust z, rep 1: 0.633; Wolbachia per cell robust z, rep 2: -3; Wolbachia per cell robust z, rep 3: -0.654; Outcome: inactive

For CG34353 [DRSC15837], what was measured?
Wolbachia per cell robust z, rep 1: -4.4; Wolbachia per cell robust z, rep 2: 0.172; Wolbachia per cell robust z, rep 3: 0.00805; Outcome: inactive

With CG34353 [DRSC22429], how do the results read?
Wolbachia per cell robust z, rep 1: 0.393; Wolbachia per cell robust z, rep 2: 1.35; Wolbachia per cell robust z, rep 3: 1.19; Outcome: inactive

What did the screen give for CG34353 [DRSC27095]?
Wolbachia per cell robust z, rep 1: -0.919; Wolbachia per cell robust z, rep 2: -2.03; Wolbachia per cell robust z, rep 3: -0.993; Outcome: inactive

Which result is listed for CG34353 [DRSC30113]?
Wolbachia per cell robust z, rep 1: 1.09; Wolbachia per cell robust z, rep 2: 0.912; Wolbachia per cell robust z, rep 3: 0.806; Outcome: inactive

Laid out differently: results already given.
target | amplicon | Wolbachia per cell robust z, rep 1 | Wolbachia per cell robust z, rep 2 | Wolbachia per cell robust z, rep 3 | Outcome
CG15473 | DRSC18056 | -2.51 | -3.14 | -2.11 | inactive
AstC-R1 (Allatostatin C receptor 1) | DRSC10799 | 0.762 | 1.1 | -0.36 | inactive
